Tags and fusion partners may be left off the protein sequences shown.
Legend:
[1] = test system: T1, Zur (Pseudomonas aeruginosa); test: DNase I footprinting; settings: 5 uM Zn, 1 uM Zur, footprint: 50 ng DNA, 40 uL EMSA buffer, 30 min room temperature, recombinant protein, residues 1-167, label: 5' 6FAM on either strand (labelled independently), probe letters rebuilt from the primers and the genome
T1 sequence (looked up): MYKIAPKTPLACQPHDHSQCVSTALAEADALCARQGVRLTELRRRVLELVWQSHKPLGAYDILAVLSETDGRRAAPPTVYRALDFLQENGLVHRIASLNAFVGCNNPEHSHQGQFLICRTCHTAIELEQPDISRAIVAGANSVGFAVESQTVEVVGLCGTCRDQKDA

[2] = test system: T1, Zur (Pseudomonas aeruginosa); test: EMSA; settings: Zn; EMSA: 25 ng DNA per reaction, buffer as in earlier work (ref 7, not given), Zn added; recombinant protein; residues 1-167; probe letters rebuilt from the primers and the genome

| Sequence | binding result [1] | binding result [2] |
| --- | --- | --- |
| ACTTCGGCAACCTTCGAAGAGACTGGCAATAGTTGGATGAAACATAGGGACAAAAGCAACATGCGCTTACAAAAGGCATTGCCCCTCACGCCCAGCGGTGCTTGCGCCGCGGACATTTCCAAAGTTCTCAGGCGGTCTCCCGGGAGAACTACCCGGTCATTCGATAATTATCATCGAAGCAGCGCAACGATATGAAATTACATTTCCAGGATTCTATCCAGGCAACGCCCGAAATGTAACTTTATAGCAATGCACTTAAACATTTACTTGCAAATGAATCCATACTTTATATAGGGGCGAACATGCGCATCCTTATTATCGAAGATGAAGTCAAGACTGCCGACTACCTGCACC (double strand) [czcR promoter footprint probe] | binds | – |
| GCCAGATCTGTTCGCCCCTATATAAAGTATGGATTCATTTGCAAGTAAATGTTTAAGTGCATTGCTATAAAGTTACATTTCGGGCGTTGCCTGGATAGAATCCTGGAAATGTAATTTCATATCGTTGCGCTGCTTCGATGATAATTATCGAATGACCGGGTAGTTCTCCCGGGAGACCGCCTGAGAACTTTGGAAATGTCCGCGGCGCAAGCACCGCTGGGCGTGAGGGGCAATGCCTTTTGTAAGCGCATGTTGCTTTTGTCCCTATGTTTCATCCAACTATTGCCAGTCTCTTCGAAGGTTGCCGAAGTGGTACCGGC (double strand) [czcR 5'-UTR wt] | – | binds |

Reference: PMC9827704
